{"source": "patent US4678799A", "about": "“1,2(1,4)-dimethyl-4(2)-(2-hydroxyethyl)-5-nitro-imidazole antiprotozoal agents with reduced mutagenicity” (Merck & Co., Inc., priority 1984, dated 1987)", "key": {"[1]": {"test_system": "T. foetus", "assay": "In vitro antiprotozoal activity against T. foetus", "type": "cell-based", "conditions": "ratio antiprotozoal activity/mutagenicity relative to known compound I", "excerpt": "(§1) Several 5-nitroimidazoles have been tested for in vitro antiprotozoal activity against T. foetus, T. vaginalis, and G. lamblia."}, "[2]": {"test_system": "T. vaginalis", "assay": "In vitro antiprotozoal activity against T. vaginalis", "type": "cell-based", "conditions": "ratio antiprotozoal activity/mutagenicity relative to known compound I", "excerpt": "as §1"}}, "note": "No dose or concentration is given here for some results."}
{"compound": "Cc1nc(CCO)n(C)c1[N+](=O)[O-]", "note": "[IV, 1,4-Dimethyl-2-(2-hydroxyethyl)-5-nitroimidazole]", "values": [{"measurement": "Efficacy Index T. foetus", "setting": "[1]", "value": 24.6}, {"measurement": "Efficacy Index T. vaginalis", "setting": "[2]", "value": 4.8}]}
{"compound": "Cc1nc(CCO)c([N+](=O)[O-])n1C", "note": "[Compound V]", "values": [{"measurement": "Efficacy Index T. foetus", "setting": "[1]", "value": 80.0}, {"measurement": "Efficacy Index T. vaginalis", "setting": "[2]", "value": 60.0}]}
